Measured values taken from patent US20160024159A1, “Potent and selective inhibitors of Nav1.7” (published 2016).
Numbering of substitutions follows the chain as printed. Values joined by “and” are separate entries in the source; they are usually repeats but may differ in a detail not shown here. Identical values can stand only once.

B1: Pra-[Nle6;Glu19,28]JzTx-V(1-29) (peptide)
peptide: GYCQKWLWTCDSKRACCEGERCKLWCRKEI
modifications: not checked
B2: Pra-[Nle6;Glu11,12,28]JzTx-V(1-29) (peptide)
peptide: B1 peptide with S12E, K13E, E20L
modifications: not checked
B3: Glu-[Pra1;Nle6;Glu11,12,28]JzTx-V(1-29) (peptide)
peptide: EGCQKWLWTCDEERACCEGLRCKLWCRKEI
modifications: not checked
B4: [Glu5,20;Tyr28]JzTx-V(1-29) (peptide)
peptide: YCQKEMWTCDSKRACCEGLECKLWCRKYI
modifications: not checked
B5: [Nva5;Glu20;Tyr28]JzTx-V(1-29) (peptide)
peptide: YCQKVMWTCDSKRACCEGLECKLWCRKYI
modifications: not checked
B6: [pI-Phe5;Glu20;Tyr28]JzTx-V(1-29) (peptide)
peptide: YCQKFMWTCDSKRACCEGLECKLWCRKYI
modifications: not checked
B7: [Lys7;Glu20;Tyr28]JzTx-V(1-29) (peptide)
peptide: YCQKWMKTCDSKRACCEGLECKLWCRKYI
modifications: not checked
B8: [Atz(NPEG10)8;Glu20]JzTx-V(1-29) (peptide)
peptide: YCQKWMWACDSKRACCEGLECKLWCRKII
modifications: not checked
B9: [Asn5;Glu20;Tyr28]JzTx-V(1-29) (peptide)
peptide: YCQKNMWTCDSKRACCEGLECKLWCRKYI
modifications: not checked
B10: [Ala29]JzTx-V(1-29) (peptide)
peptide: YCQKWMWTCDSKRACCEGLRCKLWCRKIA
modifications: not checked
B11: [Lys5;Glu20;Tyr28]JzTx-V(1-29) (peptide)
peptide: YCQKKMWTCDSKRACCEGLECKLWCRKYI
modifications: not checked
B12: [Tyr5,28;Glu20]JzTx-V(1-29) (peptide)
peptide: YCQKYMWTCDSKRACCEGLECKLWCRKYI
modifications: not checked
B13: [Leu5;Glu20;Tyr28]JzTx-V(1-29) (peptide)
peptide: YCQKLMWTCDSKRACCEGLECKLWCRKYI
modifications: not checked
B14: [Val5;Glu20;Tyr28]JzTx-V(1-29) (peptide)
peptide: YCQKVMWTCDSKRACCEGLECKLWCRKYI
modifications: not checked
B15: [Phe5;Glu20;Tyr28]JzTx-V(1-29) (peptide)
peptide: YCQKFMWTCDSKRACCEGLECKLWCRKYI
modifications: not checked
B16: Leu-Nva-[Nle6; Lys14; Glu28]JzTx-V(1-29) (peptide)
peptide: LVYCQKWLWTCDSKRKCCEGLRCKLWCRKEI
modifications: not checked
B17: Leu-Nva-[Nle6; Lys17; Glu28]JzTx-V(1-29) (peptide)
peptide: B16 peptide with K16A, E19K
modifications: not checked
B18: CyA-[Nle6; Lys17; Glu28]JzTx-V(1-29) (peptide)
peptide: B1 peptide with G1A, E18K, E20L
modifications: not checked
B19: CyA-[Nle6; Lys14; Glu28]JzTx-V(1-29) (peptide)
peptide: B1 peptide with G1A, A15K, E20L
modifications: not checked
B20: CyA-[Nle6; Lys20; Trp29]JzTx-V(1-29) (peptide)
peptide: AYCQKWLWTCDSKRACCEGLKCKLWCRKIW
modifications: not checked

Each binder was assayed against human Nav1.6 voltage-gated sodium channel (human), Q9UQD0 (assay: cell-based or functional assay).

Binder | PX hNav1.6 Tonic IC50 [nM]
B1 | > 10000
B2 | 825
B3 | 2730

The binders below were run against human Nav1.7 voltage-gated sodium channel (human), Q15858 (assay: cell-based or functional assay).

Binder | PX hNav1.7 Tonic IC50 [nM]
B1 | > 1000
B2 | 3.8
B3 | 6.66

The binders below were run against human voltage-gated sodium channel Nav1.3 (human), Q9NY46 (assay: cell-based or functional assay).

Binder | IC50, IonWorks Quattro electrophysiology [µM] | IC50 (IonWorks Quattro) [nM]
B4 | > 7 | 
B5 | > 5 | 
B6 | 1.3 | 
B7 | > 7 | 
B8 | > 5 | 
B9 | > 5 | 
B10 |  | 450
B11 | > 5 | 
B12 | > 5 | 
B13 | > 5 | 
B14 | > 5 | 
B15 | > 5 | 

Each binder was assayed against human voltage-gated sodium channel Nav1.4 (human), P35499 (assay: cell-based or functional assay).

Binder | IC50, IonWorks Quattro electrophysiology [µM] | PX hNav1.4 Tonic IC50 [nM] | Nav1.4/Nav1.7 (ratio of IC50) [fold] | IC50 (IonWorks Quattro) [nM]
B4 | > 7 |  |  | 
B5 | > 5 |  |  | 
B16 |  | 456 |  | 
B17 |  | 190 |  | 
B6 | 3.4 |  | 30 | 
B18 |  | 327 |  | 
B7 | > 7 |  |  | 
B19 |  | 545 |  | 
B8 | > 5 |  | 1 | 
B9 | > 5 |  |  | 
B10 |  |  |  | 270
B11 | > 5 |  |  | 
B12 | > 5 |  |  | 
B13 | > 5 |  |  | 
B14 | > 5 |  |  | 
B20 |  | 1640 |  | 
B15 | > 5 |  |  | 

What follows are binders tested against human voltage-gated sodium channel Nav1.5 (human), Q14524 (assay: cell-based or functional assay).

Binder | IC50, IonWorks Quattro electrophysiology [µM] | PX hNav1.5 Tonic IC50 [nM] | IC50 (IonWorks Quattro) [nM]
B4 | > 7 |  | 
B5 | > 5 |  | 
B16 |  | 5030 | 
B17 |  | 3270 | 
B6 | > 5 |  | 
B18 |  | 4670 | 
B7 | > 7 |  | 
B19 |  | 6990 | 
B8 | 18.7 |  | 
B9 | > 5 |  | 
B10 |  |  | > 5000
B11 | > 5 |  | 
B12 | > 5 |  | 
B13 | > 5 |  | 
B14 | > 5 |  | 
B20 |  | 9320 | 
B15 | > 5 |  | 

The binders below were run against human voltage-gated sodium channel Nav1.7 (human), Q15858 (assay: cell-based or functional assay).

Binder | IC50, IonWorks Quattro electrophysiology | PX hNav1.7 Tonic IC50 [nM] | IC50 (IonWorks Quattro) [nM]
B4 | > 7 µM |  | 
B5 | 3.3 µM |  | 
B16 |  | 13.5 | 
B17 |  | 29.6 | 
B6 | 0.11 µM |  | 
B18 |  | 4.83 | 
B7 | 2.7 µM |  | 
B19 |  | 6.35 | 
B9 | 4.2 µM and > 5 µM |  | 
B10 |  |  | 53
B11 | > 5 µM |  | 
B12 | 0.91 µM and 2.5 µM |  | 
B13 | > 5 µM |  | 
B14 | 3.8 µM |  | 
B20 |  | 131 | 
B15 | 0.16 µM and 0.23 µM |  | 
